Values from PubChem BioAssay AID1259414 (Drosophila RNAi Screening Center, 2018)
The deposit covers about 24,000 reagents; shown is a random part of those with a known target gene and a result. In the full data, about 1,210 (5%) were called active. 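Inactive calls also include excluded dsRNAs with several or no targets, genes unexpressed in JW18, and well A1, regardless of score.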 Names joined by + are all predicted targets of the reagent. Reagent sequences are not shown.

- Aim: 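Host factors increasing or decreasing Wolbachia levels in cultured fly cells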 (primary screen)
- Cells: Drosophila JW18 cells infected with Wolbachia
- Reagent: long dsRNA against Drosophila genes, 0.25 µg dsRNA per well of a 384-well plate
- Duration: 5 days
- Conditions: cells persistently infected with Wolbachia before knock-down; no added drug
- Detection: 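Imaged fluorescence in situ signal for Wolbachia 23S rRNA per DAPI-counted host cell, given as a robust z-score within each plate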
- Direction: Wolbachia per cell robust z: higher = more Wolbachia per host cell than the plate typical
- Call rule: 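Hit when robust z is 1.5 or more, or -1.5 or less, in at least two of three replicates; excludes dsRNAs with several or no targets, genes not expressed in JW18 and well A1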

target | amplicon | Wolbachia per cell robust z, rep 1 | Wolbachia per cell robust z, rep 2 | Wolbachia per cell robust z, rep 3 | Outcome
Nepl21 (GeneID 43413) | DRSC14133 | 0.109 | 0.963 | 2.24 | inactive
Or2a (GeneID 31207) | DRSC18690 | 0.797 | -1.29 | -0.185 | inactive
NUCB1 (GeneID 39978) | DRSC22137 | 0.0527 | -0.972 | -0.467 | inactive
NUCB1 (GeneID 39978) | DRSC29109 | 0.566 | -0.0274 | 0.262 | inactive
CG7694 (GeneID 42230) | DRSC16288 | -0.0583 | -0.13 | 0.0344 | inactive
CG14764 (GeneID 35749) | DRSC05072 | -1.55 | -0.907 | -0.777 | inactive
CG14764 (GeneID 35749) | DRSC06498 | -4.56 | 1.2 | -0.114 | inactive
CG14764 (GeneID 35749) | DRSC06844 | -0.441 | -1.6 | -3.1 | active
CG14764 (GeneID 35749) | DRSC40525 | -1.49 | -0.72 | -0.238 | inactive
Adat1 (GeneID 34787) | DRSC03479 | -0.434 | 0.0663 | -4.63 | inactive
Adat1 (GeneID 34787) | DRSC27220 | 0.409 | -0.158 | -0.0265 | inactive
CG7194 (GeneID 38933) | DRSC10784 | -0.308 | 0.488 | 0.44 | inactive
zetaCOP (GeneID 39862) | DRSC11412 | 0.969 | 1.52 | 2.52 | active
CG7016 (GeneID 42968) | DRSC16174 | -4.1 | -1.11 | -6.69 | inactive
l(2)34Fc (GeneID 34838) | DRSC01910 | -0.789 | 0.196 | -0.681 | inactive
CG31559 (GeneID 40749) | DRSC12172 | 0.268 | -0.225 | -0.378 | inactive
CG31559 (GeneID 40749) | DRSC12270 | -0.569 | -0.187 | -2.45 | inactive
CG5758 (GeneID 35083) | DRSC02889 | -1.96 | -0.455 | -0.145 | inactive
CG5758 (GeneID 35083) | DRSC02890 | -0.296 | -0.0699 | 0.355 | inactive
CG5758 (GeneID 35083) | DRSC29658 | 0.519 | -0.25 | 0.0571 | inactive
Mettl4 + CG14907 | DRSC15026 | -3.97 | -0.688 | 0.466 | inactive
Mettl4 + CG14907 | DRSC15027 | -0.523 | 0.715 | -1.13 | inactive
Mettl4 + CG14907 | DRSC26716 | 1.17 | 1.3 | 2.82 | inactive
CG14535 (GeneID 34073) | DRSC02393 | -3.91 | -0.951 | -0.246 | inactive
Ugt316A1 (GeneID 40079) | DRSC10376 | -0.502 | 0.163 | 0.566 | inactive
Tssk (GeneID 42233) | DRSC14784 | 0.579 | -0.0112 | 0.861 | inactive
Tssk (GeneID 42233) | DRSC26679 | 0.685 | 0.449 | -0.000801 | inactive
Tssk (GeneID 42233) | DRSC41614 | 0.581 | -0.336 | 0.275 | inactive
CG3335 (GeneID 39119) | DRSC10358 | -0.162 | 0.817 | 0.844 | inactive
CG3335 (GeneID 39119) | DRSC29982 | 1.13 | -0.193 | 0.0159 | inactive
CG4744 (GeneID 36485) | DRSC06887 | 0.101 | 0.731 | -0.0241 | inactive
CG4744 (GeneID 36485) | DRSC28696 | -0.398 | -0.527 | 0.0961 | inactive
CG6834 (GeneID 41409) | DRSC16125 | 0.593 | -0.879 | 0.588 | inactive
CG6834 (GeneID 41409) | DRSC29321 | 0.0635 | 0.291 | -0.587 | inactive
Dic61B (GeneID 38020) | DRSC08588 | 1.24 | 0.75 | 0.333 | inactive
Dic61B (GeneID 38020) | DRSC27636 | 0.354 | 2.12 | -0.833 | inactive
Swip-1 (GeneID 35158) | DRSC02083 | 0.0191 | -1.19 | -0.373 | inactive
Swip-1 (GeneID 35158) | DRSC02084 | -0.818 | 0.904 | 1.14 | inactive
Acp33A (GeneID 3772154) | DRSC01859 | -6.51 | 0.373 | -0.0965 | inactive

Records listed so far whose target name starts with T or t (3):
target | amplicon | Wolbachia per cell robust z, rep 1 | Wolbachia per cell robust z, rep 2 | Wolbachia per cell robust z, rep 3 | Outcome
Tssk (GeneID 42233) | DRSC14784 | 0.579 | -0.0112 | 0.861 | inactive
Tssk (GeneID 42233) | DRSC26679 | 0.685 | 0.449 | -0.000801 | inactive
Tssk (GeneID 42233) | DRSC41614 | 0.581 | -0.336 | 0.275 | inactive

Next reagents:
target | amplicon | Wolbachia per cell robust z, rep 1 | Wolbachia per cell robust z, rep 2 | Wolbachia per cell robust z, rep 3 | Outcome
CG6321 (GeneID 39233) | DRSC10623 | -0.929 | -0.667 | 1.1 | inactive
CG5439 (GeneID 34710) | DRSC02861 | -1.9 | -0.991 | -0.169 | inactive
CG5439 (GeneID 34710) | DRSC25932 | -0.526 | -0.271 | 0.584 | inactive
Pomp (GeneID 35342) | DRSC03201 | 2.17 | 1.67 | 2.31 | active
Pomp (GeneID 35342) | DRSC27581 | -0.0754 | -1.36 | -1.11 | inactive
CG9932 (GeneID 34701) | DRSC03275 | 0.114 | 0.0533 | 0.94 | inactive
Klp31E (GeneID 34422) | DRSC03354 | 0.344 | 0.172 | 0.198 | inactive
Stam (GeneID 34505) | DRSC03444 | -5.07 | -3.52 | 0.936 | active
Stam (GeneID 34505) | DRSC25607 | 1.08 | 1.35 | 1.95 | inactive
Dnaaf5 (GeneID 318680) | DRSC13032 | -2.14 | -0.767 | 0.771 | inactive
CG13460 (GeneID 39638) | DRSC10007 | 0.32 | -0.588 | 0.467 | inactive
CG6337 (GeneID 36530) | DRSC06977 | -4.62 | 0.941 | -0.599 | inactive
CG6337 (GeneID 36530) | DRSC21870 | -1.42 | -0.03 | -0.342 | inactive
muskelin (GeneID 36386) | DRSC07273 | 0.514 | 0.687 | 0.0872 | inactive
CG13014 (GeneID 32626) | DRSC19533 | 0.568 | -2.16 | -3.3 | inactive
CG13014 (GeneID 32626) | DRSC24448 | 0.859 | 0.172 | 0.401 | inactive
CG13014 (GeneID 32626) | DRSC38999 | 0.751 | 1.29 | 0.622 | inactive
kra (GeneID 40680) | DRSC12320 | -1.54 | -5.6 | -0.712 | active
CG32485 (GeneID 38363) | DRSC22666 | -0.89 | -2.26 | -1.54 | active
CG14440 (GeneID 31610) | DRSC23008 | 0.852 | 0.217 | -2.62 | inactive
CG14440 (GeneID 31610) | DRSC23009 | 0.485 | -0.0493 | -3.69 | inactive
CG14440 (GeneID 31610) | DRSC25806 | 0.0718 | -0.566 | 0.58 | inactive
CG33645 (GeneID 3771913) | DRSC37853 | -0.00277 | -5.19 | -1.46 | inactive
Hsp60D (GeneID 34763) | DRSC02543 | 1.36 | -0.631 | 0.15 | inactive
Hsp60D (GeneID 34763) | DRSC29118 | 0.852 | 0.744 | 1.45 | inactive
CG8677 + CG31626 | DRSC01838 | 0.544 | -7.51 | 0.741 | inactive
CG8677 + CG31626 | DRSC21844 | 0.819 | 0.846 | 0.934 | inactive
CG10602 (GeneID 35146) | DRSC02075 | -0.689 | -10 | -9 | active
Osi7 (GeneID 40761) | DRSC12176 | 0.149 | -3.33 | -0.592 | inactive
Osi7 (GeneID 40761) | DRSC27146 | -5.11 | 0.257 | -0.029 | inactive
